Data on seven molecules can be found in patent US20220387578A1, “Peptide vaccine based on a new universal influenza a hemagglutinin head domain epitope and human monoclonal antibodies binding thereto” (VANDERBILT UNIVERSITY, published 2022).

For test [1], the target named is H1 HA A/California/04/2009 (H1N1), recombinant soluble uncleaved trimer (HA0) (influenza A virus). In words: ELISA on coated recombinant HA.
For test [2], the target named is T1, H7 HA A/Netherlands/219/2003 (H7N7), recombinant (influenza A virus). In words: BLI, biotinylated HA on streptavidin sensor.
Test [3] has as its target T2, H1 HA A/Solomon Islands/03/2006 (H1N1), recombinant soluble trimer (influenza A virus).
T2 construct: extracellular domain
In words: BLI, biotinylated HA on streptavidin sensor.

In test [4] the target is H2 HA A/Adachi/2/1957 (H2N2) (influenza A virus). In words: BLI, biotinylated HA on streptavidin sensor.
For test [5], the target named is T3, H1 HA A/Texas/36/1991 (H1N1), recombinant soluble trimer (influenza A virus).
T3 construct: extracellular domain
In words: BLI, biotinylated HA on streptavidin sensor.

For test [6], the target named is T4, H7 HA A/Shanghai/2/2013 (H7N9), recombinant uncleaved trimer (influenza A virus). In words: BLI, biotinylated HA on streptavidin sensor.
In test [7] the target is T1, H7 HA A/Netherlands/219/2003 (H7N7), …. In words: ELISA.
Test [8] addresses H15 HA A/shearwater/Western Australia/2576/1979, recombinant (influenza A virus). In words: ELISA.
Test [9] has as its target T5, H3 HA A/Texas/50/2012, recombinant soluble trimer (influenza A virus).
T5 construct: extracellular domain
In words: ELISA.

For test [10], the target named is H5 HA A/Indonesia/05/2005 (H5N1), recombinant (influenza A virus). In words: ELISA.
The target of test [11] is H2 HA A/Singapore/1/1957, recombinant soluble trimer (influenza A virus). In words: ELISA.
In test [12] the target is H9 HA A/Hong Kong/1073/99, recombinant (influenza A virus). In words: ELISA.
Test [13] has as its target T4, H7 HA A/Shanghai/2/2013 (H7N9), …. In words: ELISA.
Test [14] deals with H14 HA A/mallard duck/Astrakhan/263/1982, recombinant (influenza A virus). In words: ELISA.

B1: mAb H5.28 (hybridoma IgG) (antibody, V domains shown)
VH: EVQLVESGGGLVQPGGSLRLSCAASGFTFSTYWMTWVRQAPGKGLEWVANINQDGGEKYFVDSVKGRFTISRDNAKNSLFLQMNTLRAEDTAVYYCARGFLERLLLGRQGAYYYGMDVWGQGTTVTVSS
VL: DIQMTQSPSSLSASVGDRVSMTCRASQIISSSLNWYQQKPGKAPKLLIYAASNLQSGVPSRFSGSGSGTDFTLTISSLQPEDFATYYCQQSYSTPPELTFGGGTKVEIK
With B1, the EC50 in [1] came to 0.026 µg/mL.

B2: mAb H5.31 (hybridoma IgG) (antibody, V domains shown)
VH: EVQLVQSGGGLVQPGGSLRLSCEASRFTSSSYWITWVRQAPGKGLEWVANIKQDGSEKYFVDSVKGRFTISRDNASNSLYLQMSSLRAEDTAVYYCARGFLERLLLGRQGAYYYGMDVWGQGTTVTVSS
VL: DIQMTQSPSSLSASVGDRVTMTCRASQSISSSLNWYQQKPGKAPKLLIYAASNLQSGVPSRFSGSGSGTDFTLTISSLQPEDFATYYCQQSYTMPPELTFGGGTKVQIK
As to B2, in test [1], the EC50 was found to be 0.005 µg/mL.

B3: FluA-20 UCA Fab (Fab, V domains shown)
VH: QVQLQESGPGLVKPSETLSLTCTVSGGSVSSGSYYWSWIRQPPGKGLEWIGYIYYSGSTNYNPSLKSRVTISVDTSKNQFSLKLSSVTAADTAVYYCARGTEDLGYCSGGSCPNHWGQGTLVTVSS
VL: not shown
As for B3, the Kd in test [2] was found to be 1020 nM; in test [3], 325 nM; in test [4], 201 nM; in test [5] it was 348 nM; in [6], 745 nM.

B4: rFluA-20 heavy chain mutant E97A (antibody, V domains shown)
VH: QVQLQESGPGLVKPSETLSLTCSVSGVSVTSDIYYWTWIRQPPGKGLEWIGYIFYNGDTNYNPSLKSRVTMSIDTSKNEFSLRLTSVTAADTAVYFCARGTADLGYCSSGSCPNHWGQGTLVTVSS
VL: DIQMTQSPSSLSASIGDRVTITCRPSQNIRSFLNWFQHKPGKAPKLLIYAASNLQSGVPSRFSGSGSGTEFTLTIRSLQPEDFATYYCQQSYNTPPTFGQGTKVEIK
With B4, in [7], the EC50 stood at 0.08 µg/mL.

B5: rFluA-20 IgG (recombinant FluA-20) (antibody, V domains shown)
VH: QVQLQESGPGLVKPSETLSLTCSVSGVSVTSDIYYWTWIRQPPGKGLEWIGYIFYNGDTNYNPSLKSRVTMSIDTSKNEFSLRLTSVTAADTAVYFCARGTEDLGYCSSGSCPNHWGQGTLVTVSS
VL: DIQMTQSPSSLSASIGDRVTITCRPSQNIRSFLNWFQHKPGKAPKLLIYAASNLQSGVPSRFSGSGSGTEFTLTIRSLQPEDFATYYCQQSYNTPPTFGQGTKVEIK
With B5, the concentration giving a half-maximal response (EC50) in test [8] is 0.007 µg/mL; in test [9], 0.007 µg/mL; in test [10], 0.016 µg/mL; in test [11], 0.011 µg/mL; in [12], 0.007 µg/mL; in test [13], 0.013 µg/mL. In test [14], the concentration for a half-maximal effect (EC50) amounted to 0.007 µg/mL.

B6: rFluA-20 heavy chain mutant Y34A (antibody, V domains shown)
VH: QVQLQESGPGLVKPSETLSLTCSVSGVSVTSDIAYWTWIRQPPGKGLEWIGYIFYNGDTNYNPSLKSRVTMSIDTSKNEFSLRLTSVTAADTAVYFCARGTEDLGYCSSGSCPNHWGQGTLVTVSS
VL: DIQMTQSPSSLSASIGDRVTITCRPSQNIRSFLNWFQHKPGKAPKLLIYAASNLQSGVPSRFSGSGSGTEFTLTIRSLQPEDFATYYCQQSYNTPPTFGQGTKVEIK
With B6, the EC50 in [7] was 0.07 µg/mL.

B7: rFluA-20 heavy chain mutant Y100aA (antibody, V domains shown)
VH: QVQLQESGPGLVKPSETLSLTCSVSGVSVTSDIYYWTWIRQPPGKGLEWIGYIFYNGDTNYNPSLKSRVTMSIDTSKNEFSLRLTSVTAADTAVYFCARGTEDLGACSSGSCPNHWGQGTLVTVSS
VL: DIQMTQSPSSLSASIGDRVTITCRPSQNIRSFLNWFQHKPGKAPKLLIYAASNLQSGVPSRFSGSGSGTEFTLTIRSLQPEDFATYYCQQSYNTPPTFGQGTKVEIK
Turning to B7, the “EC50 relative to wild type rFluA-20” value in [7] was more than 100 fold.
